Potato spindle tuber viroid, loop 6: variant abundance in plants

Reference: Wu et al. 2024, doi:10.1371/journal.ppat.1012142.

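Three N. benthamiana plants were inoculated with the whole mutant pool. Samples came from the inoculated region at 5 days, the leaf margin at 10 and upper systemic leaves at 12.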

Region: loop 6 of PSTVd (intermediate strain), upper and lower strand joined, each 5' to 3', the first 5 letters being the upper strand, closing pairs included. Wild type: UGACCGCGAG. Varied positions (N): UNNNCGNNNG.

Numbers give reads per thousand; 0 = not seen among the reads, higher = more abundant.
Each value is the mean of three plants.
"Pool" is the share in the plasmid pool used as inoculum, on the same scale.
The inoculated region was read from the minus strand, the other sites from the plus strand.
Wild type was 20.7 per thousand in the pool and the most common sequence in every sample (inoculated region 195, 198, 203; leaf margin 629, 591, 734; systemic leaves 942, 870, 868).

| sequence | pool | inoculated region | leaf margin | systemic leaves |
|---|---|---|---|---|
| UAGCCGGCUG | 0.366 | 0.102 | 0.00841 | 0 |
| UUUACGCUGG | 0.105 | 0.108 | 0.0184 | 0 |
| UGAGCGGGUG | 0.196 | 0.604 | 0.0570 | 0.0468 |
| UAGUCGGAUG | 0.131 | 0.0592 | 0.0184 | 0 |
| UAAACGACCG | 0.170 | 0.572 | 0.0691 | 0.0474 |
| UGGGCGGGCG | 0.144 | 0.0414 | 0.00773 | 0 |
| UCGCCGCGGG | 0.209 | 0.124 | 0.00920 | 0 |
| UUCCCGUCGG | 0.275 | 0.125 | 0.00841 | 0 |
| UUCACGUCUG | 0.353 | 0.0597 | 0.00920 | 0 |
| UUGGCGGGAG | 0.275 | 0.120 | 0.0184 | 0.0338 |
| UAGUCGAUGG | 0.366 | 0.0831 | 0.00773 | 0 |
| UUGACGCUAG | 0.248 | 0.107 | 0.00920 | 0 |
| UUUUCGAACG | 0.235 | 0.0711 | 0 | 0 |
| UACACGUUUG | 0.366 | 0.107 | 0.00773 | 0 |
| UACCCGGCUG | 0.288 | 0.107 | 0 | 0 |
| UCCACGCUUG | 0.222 | 0.0898 | 0.00920 | 0 |
| UUGGCGAUAG | 0.366 | 0.0960 | 0.0556 | 0 |
| UGUGCGCCGG | 0.144 | 0.108 | 0 | 0 |
| UGUUCGGCGG | 0.275 | 0.108 | 0.00773 | 0 |
| UCGUCGGGGG | 0.144 | 0.131 | 0 | 0 |
| UACCCGGUUG | 0.118 | 0.0965 | 0 | 0 |
| UAGACGGAGG | 0.183 | 0.0710 | 0 | 0 |
| UACGCGUGUG | 0.327 | 0.0594 | 0 | 0 |
| UCAGCGUAGG | 0.327 | 0.0592 | 0.00920 | 0 |
| UGCACGAACG | 0.275 | 0.0665 | 0 | 0 |
| UCGCCGCAGG | 0.183 | 0.0826 | 0 | 0 |
| UUCGCGUCCG | 0.235 | 0.0721 | 0.0261 | 0 |
| UGGGCGGCGG | 0.144 | 0.101 | 0 | 0 |
| UGUGCGAUGG | 0.275 | 0.0959 | 0 | 0 |
| UUAUCGUACG | 0.379 | 0.0659 | 0 | 0 |
| UUGACGCUUG | 0.275 | 0.113 | 0 | 0 |
| UGCGCGGUCG | 0.261 | 0.0954 | 0.00773 | 0 |
| UACGCGGGGG | 0.0261 | 0.101 | 0 | 0 |
| UGACCGACUG | 0.431 | 0.335 | 0.242 | 0.127 |
| UGUUCUACGG | 0.0131 | 0 | 0 | 0 |
| UAGCCGCACG | 0.209 | 0.101 | 0.0246 | 0 |
| UAUCCGUUCG | 0.222 | 0.107 | 0.00920 | 0 |
| UCUACGAGCG | 0.209 | 0.0711 | 0.0353 | 0 |
| UCAACGACUG | 0.222 | 0.0941 | 0 | 0 |
| UUCGCGUUCG | 0.248 | 0.0712 | 0.00920 | 0 |
| UCCACGACAG | 0.235 | 0.107 | 0 | 0 |
| UAUGCGUGGG | 0.183 | 0.0538 | 0 | 0 |
| UAUACGAAUG | 0.392 | 0.148 | 0.00773 | 0 |
| UAUUCGUAAG | 0.144 | 0.0835 | 0 | 0 |
| UCGUCGGUGG | 0.275 | 0.0710 | 0 | 0 |
| UUAACGUUAG | 0.314 | 0.725 | 0.101 | 0 |
| UGCCCGUAGG | 0.209 | 0.136 | 0.00773 | 0 |
| UUACCGGUCG | 0.261 | 0.162 | 0.00773 | 0 |
| UAUUCGACGG | 0.222 | 0.0766 | 0 | 0 |
| UUCCCGUAGG | 0.183 | 0.0782 | 0 | 0 |
| UACGCGAUGG | 0.235 | 0.0890 | 0.00920 | 0 |
| UGCUCGAUCG | 0.275 | 0.0781 | 0 | 0 |
| UCACCGGAAG | 0.0784 | 0.142 | 0.0232 | 0 |
| UGCUCGCAUG | 0.131 | 0.0779 | 0 | 0 |
| UACUCGGAGG | 0.170 | 0.0772 | 0 | 0 |
| UAUGCUACGG | 0.0131 | 0 | 0 | 0 |
| UUCGCUACGG | 0.0131 | 0 | 0 | 0 |
| UGCCCGAGCG | 0.157 | 0.136 | 0 | 0 |
| UUGACGAGUG | 0.288 | 0.125 | 0 | 0 |
| UAGGCGUACG | 0.353 | 0.0774 | 0.0155 | 0.00684 |
| UGAGCGUUGG | 0.288 | 0.0831 | 0.00773 | 0 |
| UGAGCGCGAG | 0.327 | 0.155 | 0.186 | 0.225 |
| UGAUCGAUAG | 0.353 | 0.137 | 0.0541 | 0 |
| UACUCGCAUG | 0.144 | 0.0828 | 0 | 0 |

The last 5 entries again:

With UAGGCGUACG (pool 0.353) the assay gave inoculated region 0.0774; leaf margin 0.0155; systemic leaves 0.00684.
With UGAGCGUUGG (pool 0.288) the assay gave inoculated region 0.0831; leaf margin 0.00773; systemic leaves 0.
With UGAGCGCGAG (pool 0.327) the assay gave inoculated region 0.155; leaf margin 0.186; systemic leaves 0.225.
With UGAUCGAUAG (pool 0.353) the assay gave inoculated region 0.137; leaf margin 0.0541; systemic leaves 0.
With UACUCGCAUG (pool 0.144) the assay gave inoculated region 0.0828; leaf margin 0; systemic leaves 0.

Sequences that differ at fixed positions probably stem from PCR or sequencing errors, and defective variants can be carried along by functional ones.
Samples held 36,220 to 57,551 reads, so the smallest values rest on one or two reads.